Assay results reported in ChEMBL document CHEMBL3124763, “Optimization of furin inhibitors to protect against the activation of influenza hemagglutinin H5 and Shiga toxin” (J Med Chem, 2014).

Sequences of proteins named here, by UniProt entry; tags and fusion partners are left off. Residues count along the entry.
UniProt P09958, 108-794 limits assumed: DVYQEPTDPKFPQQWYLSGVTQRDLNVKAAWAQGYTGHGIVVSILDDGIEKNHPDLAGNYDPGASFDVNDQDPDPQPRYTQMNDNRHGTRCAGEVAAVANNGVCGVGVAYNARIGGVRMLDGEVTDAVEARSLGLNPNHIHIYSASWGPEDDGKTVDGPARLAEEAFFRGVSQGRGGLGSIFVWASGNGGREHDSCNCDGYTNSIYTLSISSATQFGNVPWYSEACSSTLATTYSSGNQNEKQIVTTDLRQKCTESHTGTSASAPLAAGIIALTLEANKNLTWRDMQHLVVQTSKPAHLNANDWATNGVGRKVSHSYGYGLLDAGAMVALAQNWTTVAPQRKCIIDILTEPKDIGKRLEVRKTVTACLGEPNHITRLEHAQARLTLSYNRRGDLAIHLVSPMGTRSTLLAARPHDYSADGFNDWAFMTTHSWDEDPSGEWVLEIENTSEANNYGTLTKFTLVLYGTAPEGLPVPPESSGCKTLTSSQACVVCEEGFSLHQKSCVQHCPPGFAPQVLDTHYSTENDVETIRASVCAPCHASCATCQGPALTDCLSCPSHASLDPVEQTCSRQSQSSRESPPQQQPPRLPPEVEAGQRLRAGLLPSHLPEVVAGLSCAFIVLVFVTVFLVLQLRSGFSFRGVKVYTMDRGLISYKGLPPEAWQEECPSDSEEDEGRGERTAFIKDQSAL

Legend:
[1] = Cytotoxicity against human HEK293FT cells at 100 uM after 4 hrs by LDH assay
Furin = Furin (Homo sapiens, UniProt P09958); assay: Competitive inhibition of recombinant furin (unknown origin) using as substrate after 60 mins
Mus musculus = assay: Acute toxicity in iv dosed mouse; conditions: in vivo
[2] = Cytotoxicity against human HEK293FT cells after 24 hrs by MTT assay
Plasma = assay: Half life in CD1 mouse plasma at 35 ug by HPLC analysis; conditions: strain CD1, Plasma
[3] = Cellular uptake in human HT1080 cells assessed as membrane binding at 10 uM after 1 hr by FACS analysis; conditions: ht-1080, 1 h
[4] = Cellular uptake in human HT1080 cells at 10 uM after 1 hr by FACS analysis; conditions: ht-1080, 1 h

Row | Structure (SMILES) | Activity [1] [%] | Ki (Furin) [nM] | MTD (Mus musculus) [mg/kg] | Activity [2] [µM] | t1/2 (Plasma) [h] | Drug uptake [3] [%] | Drug uptake [4] [%]
1 | CC(=O)NN(CCCN=C(N)N)CC(=O)N[C@@H](C)C(=O)N[C@@H](CCCN=C(N)N)C(=O)N[C@@H](CCCN=C(N)N)C(=O)N[C@@H](CCCN=C(N)N)C(=O)N[C@@H](CCCCN)C(=O)N[C@@H](CCCCN)C(=O)NN(CCCN=C(N)N)CC(=O)N[C@H](C(N)=O)[C@@H](C)O | < 5 | 33 | 10 | > 150 | 7.7 |  | 
2 | CC(=O)N[C@@H](CCCNC(=N)N)C(=O)N[C@@H](C)C(=O)N[C@@H](CCCNC(=N)N)C(=O)N[C@@H](CCCNC(=N)N)C(=O)NN(CCCNC(=N)N)CC(=O)N[C@@H](CCCCN)C(=O)N[C@@H](CCCCN)C(=O)N[C@@H](CCCNC(=N)N)C(=O)N[C@H](C(N)=O)[C@@H](C)O |  | 123 |  |  | 0.95 |  | 
3 | C[C@H](NC(=O)[C@H](CCCNC(=N)N)NC(=O)CCNC(=S)Nc1ccc2c(c1)C(=O)OC21c2ccc(O)cc2Oc2cc(O)ccc21)C(=O)N[C@@H](CCCNC(=N)N)C(=O)N[C@@H](CCCNC(=N)N)C(=O)N[C@@H](CCCNC(=N)N)C(=O)N[C@@H](CCCCN)C(=O)N[C@@H](CCCCN)C(=O)NCc1ccc(C(=N)N)cc1 |  |  |  |  |  | 0 | 465
4 | CC(=O)N[C@@H](CCCN=C(N)N)C(=O)N[C@@H](C)C(=O)N[C@@H](CCCN=C(N)N)C(=O)N[C@@H](CCCN=C(N)N)C(=O)N[C@@H](CCCN=C(N)N)C(=O)N[C@@H](CCCCN)C(=O)N[C@@H](CCCCN)C(=O)NN(CCCN=C(N)N)CC(=O)N[C@H](C(N)=O)[C@@H](C)O | < 5 | 21 | 10 | > 150 | 5.6 |  | 
5 | CC(=O)N[C@@H](CCCNC(=N)N)C(=O)N[C@@H](C)C(=O)N[C@@H](CCCNC(=N)N)C(=O)N[C@@H](CCCNC(=N)N)C(=O)N[C@@H](CCCNC(=N)N)C(=O)NN(CCCCN)CC(=O)N[C@@H](CCCCN)C(=O)N[C@@H](CCCNC(=N)N)C(=O)N[C@H](C(N)=O)[C@@H](C)O |  | 591 |  |  |  |  | 
6 | C[C@H](NC(=O)[C@H](CCCNC(=N)N)NC(=O)CCNC(=S)Nc1ccc2c(c1)C(=O)OC21c2ccc(O)cc2Oc2cc(O)ccc21)C(=O)N[C@@H](CCCNC(=N)N)C(=O)N[C@@H](CCCNC(=N)N)C(=O)N[C@@H](CCCNC(=N)N)C(=O)N[C@@H](CCCCN)C(=O)N[C@@H](CCCCN)C(=O)NC/C=C/CNC(=N)N |  |  |  |  |  | 8 | 265
7 | CC(=O)N[C@@H](CCCN=C(N)N)C(=O)N[C@@H](C)C(=O)N[C@@H](CCCN=C(N)N)C(=O)NN(CCCN=C(N)N)CC(=O)N[C@@H](CCCN=C(N)N)C(=O)N[C@@H](CCCCN)C(=O)N[C@@H](CCCCN)C(=O)N[C@@H](CCCN=C(N)N)C(=O)N[C@H](C(N)=O)[C@@H](C)O |  | 89 |  |  | 1 |  | 
8 | CC(=O)N[C@@H](CCCNC(=N)N)C(=O)N[C@@H](C)C(=O)NN(CCCNC(=N)N)CC(=O)N[C@@H](CCCNC(=N)N)C(=O)N[C@@H](CCCNC(=N)N)C(=O)N[C@@H](CCCCN)C(=O)N[C@@H](CCCCN)C(=O)N[C@@H](CCCNC(=N)N)C(=O)N[C@H](C(N)=O)[C@@H](C)O |  | 18 |  |  | 1.16 |  | 
9 | C[C@H](NC(=O)[C@H](CCCNC(=N)N)NC(=O)CCNC(=S)Nc1ccc2c(c1)C(=O)OC21c2ccc(O)cc2Oc2cc(O)ccc21)C(=O)N[C@@H](CCCNC(=N)N)C(=O)N[C@@H](CCCNC(=N)N)C(=O)N[C@@H](CCCNC(=N)N)C(=O)N[C@@H](CCCCN)C(=O)N[C@@H](CCCCN)C(=O)NN(CCCNC(=N)N)CC(=O)N[C@H](C(N)=O)[C@@H](C)O |  |  |  |  |  | 22 | 96
10 | CC(=O)NN(CCCN=C(N)N)CC(=O)N[C@@H](C)C(=O)N[C@@H](CCCN=C(N)N)C(=O)N[C@@H](CCCN=C(N)N)C(=O)N[C@@H](CCCN=C(N)N)C(=O)N[C@@H](CCCCN)C(=O)N[C@@H](CCCCN)C(=O)N[C@@H](CCCN=C(N)N)C(=O)N[C@H](C(N)=O)[C@@H](C)O | < 5 | 8 | > 10 | > 100 | 2.9 |  | 
11 | CC(=O)N[C@@H](CCCNC(=N)N)C(=O)N[C@@H](C)C(=O)N[C@@H](CCCNC(=N)N)C(=O)N[C@@H](CCCNC(=N)N)C(=O)N[C@@H](CCCNC(=N)N)C(=O)N[C@@H](CCCCN)C(=O)N[C@@H](CCCCN)C(=O)NCc1ccc(C(=N)N)cc1 | < 5 | 1.9 | 7 | > 150 | 8.6 |  | 
12 | C[C@H](NC(=O)CN(CCCNC(=N)N)NC(=O)CCNC(=S)Nc1ccc2c(c1)C(=O)OC21c2ccc(O)cc2Oc2cc(O)ccc21)C(=O)N[C@@H](CCCNC(=N)N)C(=O)N[C@@H](CCCNC(=N)N)C(=O)N[C@@H](CCCNC(=N)N)C(=O)N[C@@H](CCCCN)C(=O)N[C@@H](CCCCN)C(=O)NN(CCCNC(=N)N)CC(=O)N[C@H](C(N)=O)[C@@H](C)O |  |  |  |  |  | 14 | 115
13 | CC(=O)N[C@@H](CCCN=C(N)N)C(=O)N[C@@H](C)C(=O)N[C@@H](CCCN=C(N)N)C(=O)N[C@@H](CCCN=C(N)N)C(=O)N[C@@H](CCCN=C(N)N)C(=O)N[C@@H](CCCCN)C(=O)N[C@@H](CCCCN)C(=O)NC/C=C/CN=C(N)N | < 5 | 6 | > 10 | > 150 | 4.8 |  | 
